# Biological target: T. cruzi proteasome chymotrypsin-like activity (Trypanosoma cruzi, UniProt V5BU39)
# Chains of the proteins cited; added tags and fusions are not shown. Residues count along the entry.
# UniProt V5BU39, 111-311 limits assumed: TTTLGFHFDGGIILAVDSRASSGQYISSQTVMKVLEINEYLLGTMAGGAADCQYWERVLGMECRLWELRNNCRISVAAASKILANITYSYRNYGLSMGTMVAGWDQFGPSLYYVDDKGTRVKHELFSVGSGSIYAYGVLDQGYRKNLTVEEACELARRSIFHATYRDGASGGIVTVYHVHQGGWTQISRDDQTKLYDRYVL
# UniProt V5C017, 1-206 partner: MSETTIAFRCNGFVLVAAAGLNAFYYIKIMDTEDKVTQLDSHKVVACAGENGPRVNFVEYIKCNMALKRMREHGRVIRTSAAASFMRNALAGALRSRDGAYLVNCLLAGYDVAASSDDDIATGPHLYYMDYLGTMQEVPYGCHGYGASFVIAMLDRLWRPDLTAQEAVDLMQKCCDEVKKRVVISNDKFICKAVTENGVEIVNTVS
# UniProt A0A2V2VW62, 32-246 partner limits assumed: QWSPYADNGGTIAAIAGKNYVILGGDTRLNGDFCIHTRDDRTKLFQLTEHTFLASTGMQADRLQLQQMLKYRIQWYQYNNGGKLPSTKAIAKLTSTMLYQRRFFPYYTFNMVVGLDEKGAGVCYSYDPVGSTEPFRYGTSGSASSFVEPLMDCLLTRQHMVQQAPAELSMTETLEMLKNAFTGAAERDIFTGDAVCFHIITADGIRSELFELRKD
# Test: Primary T. cruzi proteasome chymotrypsin-like activity assay, hit compound pIC50 determination
# Details: for Replicate 1 pIC50: independent replicate 1; for Replicate 2 pIC50: independent replicate 2
Compound,Replicate 1 pIC50,Replicate 2 pIC50
Cc1ccc(-c2nc(CN3CCC(C(=O)N(C)C)CC3)cs2)o1,4.37,4.33
COc1ccc(OCCN2C(=O)c3ccccc3S2(=O)=O)cc1,4.80,4.84
O=C(O)c1ccccc1NS(=O)(=O)c1ccc2ccccc2c1,4.58,4.52
CSCC(=O)Nc1nc2c(s1)CCCC2,4.75,4.45
CCC(C)c1ccc(C(=O)CSc2nnc(N)s2)cc1 (stereo not shown),–,5.13
COc1ccc(NC(=O)c2csnn2)cc1,4.77,4.85
Cc1ccc(N(C)C2CCN(C(=O)CCc3ccco3)CC2)nn1,4.89,4.78
OC1CCCN(Cc2csc(-c3cccs3)n2)C1 (stereo not shown),4.62,4.61
CCN1CCc2c(sc(NC(=O)COc3ccc(Cl)cc3)c2C(N)=O)C1,5.11,5.07
O=C(Nc1cccc(F)c1)c1cnccn1,4.18,4.24
CCCNC(=O)COCc1nnc(C(=O)Nc2cccc(Cl)c2)s1,5.51,5.44
Cc1cc(N)n(-c2ccc(C)c(C)c2)n1,4.38,4.73
NC(=O)c1nc(COc2ccc3c(c2)OCO3)no1,5.05,4.98
CC(C)CCOc1ccc(C(=O)O)cc1,4.40,4.27
Cc1nc(CN2CCCC(N(C)Cc3cscn3)C2)no1 (stereo not shown),4.46,4.58
Clc1ccc(-c2ccc(CNc3nn[nH]n3)o2)c(Cl)c1,4.62,4.23
Nc1c(C(=O)N2CCCCCC2)nnn1-c1ccc(F)cc1,4.80,4.73
N#Cc1cccnc1N1CCOC(c2cccc(Br)c2)C1 (stereo not shown),4.85,4.60
CCCNC(=O)COC(=O)c1csc(-c2ccccc2)n1,4.46,4.47

Compound,Replicate 1 pIC50,Replicate 2 pIC50
COc1ccc(C(=O)OCC(=O)c2ccc(Cl)s2)cn1,4.15,4.00
O=C(O)COCC(=O)Nc1ccc(OCc2ccccc2)cc1,4.68,4.62
CCCC(NC(=O)c1cc(C)n(C2CC2)c1C)c1nn[nH]n1 (stereo not shown),4.25,4.17
Cc1ccc(-c2ccc(C(=O)O)o2)cc1,4.55,4.47
CCc1ccc(-c2cc(C(=O)O)c3cccc(C)c3n2)s1,4.14,4.09
Cc1cc(S(=O)(=O)Nc2cccc(-n3cccc3)c2)sc1C(=O)O,4.78,4.72
CNc1nc(-c2ccc3c(c2)CC(=O)N3C)cs1,4.13,4.04
Cc1cc(C(=O)N2CCC3(CCCN(CC4CC4)C3=O)C2)c(C)n1C (stereo not shown),–,4.07
O=C(Nc1ccc(S(=O)(=O)C(F)F)cc1)c1cc(Cl)ccn1,4.91,4.90
CCCOc1ccc2c(c1)OCC(C(=O)O)=C2,4.70,4.60
CC(=O)NCc1ccc(-c2csc(NC3CC3)n2)cc1,4.27,4.30
CCN(CC(F)(F)F)C(=O)c1sc(NC(=O)c2ccco2)cc1C,–,4.53
Cc1cnn(C2CN(CC(=O)NCc3ccccn3)C2)c1,4.83,4.71
Cc1cccc(OCCN2C(=O)c3ccccc3S2(=O)=O)c1,4.87,4.90
N#Cc1cccnc1N1CCOC(c2ccccc2Br)C1 (stereo not shown),4.89,4.77
O=C(Nc1ccc(F)c(Br)c1)N1CCCC1,4.95,4.94
COc1cccc(NC(=O)c2csnn2)c1,4.59,4.51
Cc1ccc(-c2cc(C(=O)NC3CC3)on2)cc1,5.31,5.04
CCNS(=O)(=O)c1cc(C(=O)Nc2ccccc2)ccc1OC,4.64,4.62

# From paper PMC6709497, “Identification of Novel Trypanosoma cruzi Proteasome Inhibitors Using a Luminescence-Based High-Throughput Screening Assay” (Antimicrobial Agents and Chemotherapy, 2019)
